Values of other authors, collected in article PMC4179598.

Biological target: His37 (UniProt position 37, IIGILHLILWI)
Test: NMR
Details: Membrane-reconstituted M2TM tetramer

Matrix protein 2 transmembrane peptide (M2TM, residues 22-46) (Influenza A virus)
pKa: 8.2
